In paper PMC9675976, “Selfish uptake versus extracellular arabinoxylan degradation in the primary degrader Ruminiclostridium cellulolyticum, a new string to its bow” (Biotechnology for Biofuels and Bioproducts, 2022):
Entries after “also recorded” stand apart in the source; their conditions may differ. Marks after values point to notes of the source that are not given here.

Assays:
[1] = system: XuaF; assay: Enzyme activity of XuaF on AXOS and XOS (HPAEC-PAD); assay type: biochemical, Ruminiclostridium cellulolyticum; conditions: ? = product not identified with certainty
Method: (§1) XuaD, E, F, G (0.01 to 1 µM) were tested with different AXOS and/or XOS at 1 mM with incubation times varying from 5 min to 24 h. Enzymes (10 nM) were incubated at 37 °C for 5 min, kinetic parameters of XuaD were determined with both A^2,3XX and A^2XX, with sugar concentration varying from 0.05 to 8 mM, and XuaE with A^2,3XX with sugar concentration varying from 0.05 to 1 mM (at least 9 concentration point). Substrates and released products were quantified by high performance anion exchange chromatography coupled with pulsed amperometric detection on an ICS-3000 using a PA1 column (Thermo Scientific). Sugars were eluted with the buffers 0.1 M NaOH and 0.5 M sodium acetate + 0.1 M NaOH as the eluants A and B, respectively, using the multistep procedure as follows: isochratic separation (5 min, 95% A + 5% B), separation gradient (8 min, 10–37% B), column wash (2 min, 99% B), and subsequent column equilibration (2.5 min, 95% A + 5% B).

[2] = system: XuaG; assay: Enzyme activity of XuaG on AXOS and XOS (HPAEC-PAD); assay type: biochemical, Ruminiclostridium cellulolyticum; conditions: superscript a = transglycosylation was detected
Method: as §1

SMILES | Products released by XuaF [1] | Products released by XuaG [2]
OC[C@@H]1O[C@@H](O[C@H]2[C@H](O[C@@H]3CO[C@@H](O[C@@H]4COC(O)[C@H](O)[C@H]4O)[C@H](O)[C@H]3O)OC[C@@H](O)[C@@H]2O)[C@H](O)[C@H]1O (some centres unmarked) [A^2XX] | Products: Xyl, A^2X? | 
OC1OC[C@@H](O[C@@H]2OC[C@@H](O[C@@H]3OC[C@@H](O)[C@H](O)[C@H]3O)[C@H](O)[C@H]2O)[C@H](O)[C@H]1O (some centres unmarked) [X3, xylotriose] | Products: Xyl, X2 | Products: Xyl, X2^a
OC1OC[C@@H](O[C@@H]2OC[C@@H](O[C@@H]3OC[C@@H](O[C@@H]4OC[C@@H](O)[C@H](O)[C@H]4O)[C@H](O)[C@H]3O)[C@H](O)[C@H]2O)[C@H](O)[C@H]1O (some centres unmarked) [X4] | Products: Xyl, X3, X2 | Products: Xyl, X3, X2^a
OC1OC[C@@H](O[C@@H]2OC[C@@H](O[C@@H]3OC[C@@H](O[C@@H]4OC[C@@H](O[C@@H]5OC[C@@H](O)[C@H](O)[C@H]5O)[C@H](O)[C@H]4O)[C@H](O)[C@H]3O)[C@H](O)[C@H]2O)[C@H](O)[C@H]1O (some centres unmarked) [X5] | Products: Xyl, X4, X3 | Products: Xyl, X4, X3, X2^a
OC[C@@H]1O[C@@H](O[C@@H]2[C@@H](O[C@@H]3O[C@@H](CO)[C@H](O)[C@H]3O)[C@H](O[C@@H]3CO[C@@H](O[C@@H]4COC(O)[C@H](O)[C@H]4O)[C@H](O)[C@H]3O)OC[C@H]2O[C@@H]2OC[C@@H](O)[C@H](O)[C@H]2O)[C@H](O)[C@H]1O (some centres unmarked) [XA^2,3XX] | Products: Xyl, XA^2,3X ? | xylose and A^2,3XX; also recorded: Products: Xyl, A^2,3XX^a
OC[C@@H]1O[C@@H](O[C@@H]2[C@@H](O)[C@H](O[C@@H]3CO[C@@H](O[C@@H]4COC(O)[C@H](O)[C@H]4O)[C@H](O)[C@H]3O)OC[C@H]2O[C@@H]2OC[C@@H](O)[C@H](O)[C@H]2O)[C@H](O)[C@H]1O (some centres unmarked) [XA^3XX] | Products: Xyl, XA^3X ? | Products: Xyl, A^3XX?^a
